Anti-infective test results gathered from many reports (values: NIAID ChemDB through PubChem).

All rows: growth or infection tests; species: Mycobacterium tuberculosis

ECn: concentration that inhibits the pathogen or its effect by n%. Blank or dashed fields: not listed here. Percent inhibition refers to the dose given; in toxicity tests it is the harm to the cells. MIC bound comes from a single tested concentration. Conditions beyond the fields shown may differ between rows.

smiles,method,dose,cell line,strain,measure,value
Fc1ccc(CN2COc3c(cc(Cl)c4cccnc34)C2)cc1,-,6.25 µg/mL,-,H37Rv,inhibition,59%
NNc1ccccc1C(=O)O,-,-,-,H37Rv,MIC,100 µg/mL
CCOC(=O)Nc1cc(NCC(=O)CN(C)c2ccc(C(=O)OC)cc2)c([N+](=O)[O-])c(N)n1,-,12.5 µg/mL,-,H37Rv,inhibition,0%
CCCCC(CC)CN1CN(CC(CC)CCCC)CC(C)(NCCNCC(C)c2ccccc2)C1,-,-,-,-,MIC,6.25 µM
c1ccc(-c2nc[nH]c2-c2ccccc2)cc1,-,-,-,H37Rv,MIC,>100 µg/mL
CC1(C)[C@H]2CC[C@@H](CNCCNC3CCCCCCC3)[C@@H]1C2,-,-,-,-,MIC,12.5 µM
Cc1nnc2n1N=C(CC(=O)c1ccc(O)cc1O)CN2N,BACTEC,12.5 µg/mL,-,H37Rv,inhibition,3%
CO[C@H]1/C=C/O[C@@]2(C)Oc3c(C)c(O)c4c(O)c(c(/C=N/N5CCN(C/C=C/c6ccccc6)CC5)c(O)c4c3C2=O)NC(=O)/C(C)=C\C=C\[C@H](C)[C@H](O)[C@@H](C)[C@@H](O)[C@@H](C)[C@H](OC(C)=O)[C@@H]1C,-,-,-,3064 (rifampin-sensitive),MBC,0.2 µg/mL
NCCCNCCCCNCCCN.O=P(O)(O)O,-,-,-,H37Rv,MIC,>100 µg/mL
Cc1c2cc[n+]([O-])cc2c(C)c2c1oc1ccccc12,resazurin,-,-,H37Rv,MIC,3.13 µg/mL
CCCCC(CC)CN1CN(CC(CC)CCCC)CC(C)(NCCN[C@@H](C)C2CCCCC2)C1,-,-,-,-,MIC,25 µM
CNc1ccc(O)cc1.O=S(=O)(O)O,-,-,-,H37Rv,MIC,>100 µg/mL
CCCCN(CCNC/C=C(\C)CCC=C(C)C)Cc1ccccc1,-,-,-,-,MIC,25 µM
CCCC1CS(=O)(=O)CC(CCC)S1(=O)=O,-,-,-,H37Rv,MIC,50 µg/mL
CCCCC(NC(=O)C1CCCN1C(=O)OCc1ccccc1)C(=O)OCc1ccccc1,BACTEC,12.5 µg/mL,-,H37Rv,inhibition,83%
COc1ccc(CCNCCNCc2ccc(OC)c(OC)c2)cc1,-,-,-,-,MIC,25 µM
Cc1ccc(C(C)C)c(OCCOCC[n+]2ccccc2)c1,-,-,-,H37Rv,MIC,>100 µg/mL
COc1ccc(OC)c(CCNCCNCc2cccc(F)c2)c1,-,-,-,-,MIC,12.5 µM
CCOC(=O)Nc1cc(NCCc2ccc(S(N)(=O)=O)cc2)c(N)c(N)n1,-,-,-,H37Rv,EC50,>12.5 µg/mL
CC(CNCCc1ccc(O)cc1)NC[C@@H]1CC[C@H]2C[C@@H]1C2(C)C,-,-,-,-,MIC,25 µM
CC(NCCNCCc1ccccc1F)c1cccc2ccccc12,-,-,-,-,MIC,25 µM
CCS(=O)(=O)CCN1C(=O)CN=C(c2ccccc2F)c2cc(Cl)ccc21,BACTEC,-,-,H37Rv,MIC bound,>12.5 µg/mL
Clc1ccccc1CNCCNC1CCCCCCC1,-,-,-,-,MIC,25 µM
COc1cc(C2c3cc4c(c(OC(=O)c5ccccn5)c3CC3COC(=O)C32)OCO4)cc(OC)c1OC,BACTEC,-,-,H37Rv,MIC bound,>12.5 µg/mL
Fc1cccc(CCNCCNCCCCc2ccccc2)c1,-,-,-,-,MIC,50 µM
CCOC(=O)CCN(C)CCC(=O)OCC,-,-,-,H37Rv,MIC,>100 µg/mL
CC(C)c1ccc2c(c1)CC[C@H]1[C@](C)(CNCCN[C@H]3C[C@H]4C[C@@H]([C@@H]3C)C4(C)C)CCC[C@]21C,-,-,-,-,MIC,25 µM
COc1cc(C)c2c(=O)c3c(oc2c1)C(=O)c1c(O)c(OC)cc(O)c1C3=O,-,-,-,EMB-R,MIC,12.5 µg/mL
CCN(CC)C(C)=O,-,-,-,H37Rv,MIC,>100 µg/mL
COc1ccc(C2Oc3ccc(C(=O)O)cc3C(=O)C2O)cc1,-,-,-,H37Rv,EC50,>12.5 µg/mL
CCOC(=O)Nc1cc2c(c(N)n1)N=C(c1ccc(O)cc1)[C@H](C)N2,-,-,-,H37Rv,EC50,>12.5 µg/mL
CC1=CC(=O)C=CC1=O,-,-,-,H37Rv,MIC,>100 µg/mL
CO[C@H]1/C=C/O[C@@]2(C)Oc3c(C)c(O)c4c(=O)c(c5oc6cc(N7CCN(CC(C)C)CC7)cc(=O)c6nc5c4c3=C2O)NC(=O)/C(C)=C\C=C\[C@H](C)[C@H](O)[C@@H](C)[C@@H](O)[C@@H](C)[C@H](OC(C)=O)[C@@H]1C,-,-,-,2275 (rifampin-resistant),MIC,0.2 µg/mL
O=C1c2c(NCC(O)CCl)cc(S(=O)(=O)O)c(O)c2C(=O)c2c(NCC(O)CCl)cc(S(=O)(=O)O)c(O)c21,-,-,-,H37Rv,MIC,>100 µg/mL
NCC[C@H](O)C(=O)N[C@@H]1C[C@H](N)[C@@H](O[C@H]2O[C@H](CN)[C@@H](O)[C@H](O)[C@H]2O)[C@H](O)[C@H]1O[C@H]1O[C@H](CO)[C@@H](O)[C@H](N)[C@H]1O,broth dilution / resazurin,-,-,MDR8,MIC,32 µg/mL
Nc1ccc(S(=O)(=O)c2ccc(N)nc2)cc1,-,-,-,H37Rv,MIC,50 µg/mL
CCCCCCCCCCCNCCNCCCc1ccccc1,-,-,-,-,MIC,25 µM
CCCCNC(C)C(=O)c1ccccc1.Cl,-,-,-,H37Rv,MIC,>100 µg/mL
CCOC(=O)c1cc(C)nc2c1c(=O)n(-c1ccccc1)c(=O)n2CCCCN1CCN(c2ccccc2)CC1,resazurin,6.25 µg/mL,-,H37Rv,inhibition,27%
COc1ccc(C2CC(=O)c3ccc(I)cc3O2)cc1,-,12.5 µg/mL,-,-,inhibition,0%
CC(C)c1ccc2c(c1)CC[C@H]1[C@](C)(CNCCNC3CCC3)CCC[C@]21C,-,-,-,-,MIC,50 µM
CCOC(=O)Nc1cc(N)c2[nH]c(-c3ccccc3)nc2n1,-,12.5 µg/mL,-,H37Rv,inhibition,0%
O=C1CC(c2ccccc2)Oc2ccc(I)cc21,-,12.5 µg/mL,-,-,inhibition,0%
CCCCC(CC)CN1CN(CC(CC)CCCC)CC(C)(NCCNCc2ccc(C(F)(F)F)cc2)C1,-,-,-,-,MIC,50 µM
Nc1ccc(-c2ccccc2-c2ccccc2)cc1,-,-,-,H37Rv,MIC,50 µg/mL
Cl.O=C(NCCCCCCNC(=O)N1CCCCC1)c1cccnc1,BACTEC,-,-,H37Rv,MIC bound,>12.5 µg/mL
Cc1cc(C(=O)O)cc(S(=O)(=O)O)c1N,-,-,-,H37Rv,MIC,>100 µg/mL
CC1=N/C(=C/c2ccccc2O)C(=O)N1n1c(-c2ccccc2)nc2ccccc2c1=O,BACTEC,-,-,H37Rv,MIC bound,>12.5 µg/mL
O=C1C(=O)C(Br)(Br)C(Br)=C1Br,-,-,-,H37Rv,MIC,>100 µg/mL
Nc1nc(N)c2c(n1)Nc1ccc(Cl)nc1S2,BACTEC,12.5 µg/mL,-,H37Rv,inhibition,32%
CCC1CCCCN1CCNCCC(c1ccccc1)c1ccccc1,-,-,-,-,MIC,25 µM
CC(C)=Cc1cc(CCC/C(C)=C/Cc2c(O)cc(C)c(C(=O)O)c2O)co1,BACTEC,-,-,H37Rv,MIC,≥12.5 µg/mL
c1ccc(COc2ccc3ccccc3n2)cc1,-,-,-,H37Rv,MIC,25 µg/mL
C=C1C(=O)OC2/C=C(/C)C(OC(C)=O)C/C=C(/C)C(O)C(OC(=O)/C(C)=C/C)C12,BACTEC,-,-,H37Rv,MIC bound,>12.5 µg/mL
CCOC(=O)Oc1cccc2c(S(=O)(=O)Nc3cc(=O)[nH]c(=S)[nH]3)cccc12,-,-,-,H37Rv,MIC,>100 µg/mL
COc1cc(C(O)(c2ccccc2)C2CCCCN2)cc(OC)c1OC,resazurin,6.25 µg/mL,-,H37Rv,inhibition,22%
CC(=O)Oc1ccc(N=Nc2ccccc2C(=O)O)cc1Cl,-,-,-,H37Rv,MIC,>100 µg/mL
C=C1CC[C@H]2C(C)=CC[C@@H]3[C@H](OC(=O)[C@H]3COC)[C@@H]12,BACTEC,-,-,H37Rv,MIC,≥12.5 µg/mL
CN(C)c1ccc(C=Nc2ccccc2)cc1,-,-,-,H37Rv,MIC,>100 µg/mL
Cc1c(N=Nc2ccc(Br)cc2)c(-c2ccccc2)nn1C(=S)S,BACTEC,-,-,H37Rv,MIC,≥12.5 µg/mL
OCc1ccccc1Sc1ccccc1CNCCNCCc1ccccc1Cl,-,-,-,-,MIC,50 µM
CN(C)C(=S)SCc1ccc(Cl)cc1Cl,BACTEC,128 µg/mL,-,H37Rv,inhibition,97%
O=C(/C=C/c1cc2ccccc2[nH]1)c1ccncc1,-,-,-,H37Rv,EC50,>12.5 µg/mL
COC1=C(OC)C(=O)C(N(C)C)=C(CO)C1=O,resazurin,-,-,H37Rv,MIC bound,>6.25 µg/mL
c1ccc(C(CCNCCNC2CCc3ccccc32)c2ccccc2)cc1,-,-,-,-,MIC,12.5 µM
O=Nc1c(-c2ccccc2)[nH]oc1=O,resazurin,-,VERO,H37Rv,MIC,6.25 µg/mL
O=C1C=CC(=O)N1CCO,-,-,-,H37Rv,MIC,>100 µg/mL
Cc1c(N=Nc2c(S(=O)(=O)[O-])cc3cc(S(=O)(=O)[O-])c(N=Nc4c(C)n(C)n(-c5ccccc5)c4=O)c(O)c3c2O)c(=O)n(-c2ccccc2)n1C.[Na+].[Na+],BACTEC,-,-,H37Rv,MIC bound,>12.8 µg/mL
CCOC(=O)Nc1cc2nc(C)c(C(C)c3ccc(OC)cc3)nc2c(N)n1,-,-,-,H37Rv,EC50,<12.5 µg/mL